Results as given in patent publication US20120178668A1.

T1: Natriuretic Peptide Receptor-A (NPR-A) of MDCK cells (canine (endogenous in MDCK cells)), A0A8I3
T1 chain: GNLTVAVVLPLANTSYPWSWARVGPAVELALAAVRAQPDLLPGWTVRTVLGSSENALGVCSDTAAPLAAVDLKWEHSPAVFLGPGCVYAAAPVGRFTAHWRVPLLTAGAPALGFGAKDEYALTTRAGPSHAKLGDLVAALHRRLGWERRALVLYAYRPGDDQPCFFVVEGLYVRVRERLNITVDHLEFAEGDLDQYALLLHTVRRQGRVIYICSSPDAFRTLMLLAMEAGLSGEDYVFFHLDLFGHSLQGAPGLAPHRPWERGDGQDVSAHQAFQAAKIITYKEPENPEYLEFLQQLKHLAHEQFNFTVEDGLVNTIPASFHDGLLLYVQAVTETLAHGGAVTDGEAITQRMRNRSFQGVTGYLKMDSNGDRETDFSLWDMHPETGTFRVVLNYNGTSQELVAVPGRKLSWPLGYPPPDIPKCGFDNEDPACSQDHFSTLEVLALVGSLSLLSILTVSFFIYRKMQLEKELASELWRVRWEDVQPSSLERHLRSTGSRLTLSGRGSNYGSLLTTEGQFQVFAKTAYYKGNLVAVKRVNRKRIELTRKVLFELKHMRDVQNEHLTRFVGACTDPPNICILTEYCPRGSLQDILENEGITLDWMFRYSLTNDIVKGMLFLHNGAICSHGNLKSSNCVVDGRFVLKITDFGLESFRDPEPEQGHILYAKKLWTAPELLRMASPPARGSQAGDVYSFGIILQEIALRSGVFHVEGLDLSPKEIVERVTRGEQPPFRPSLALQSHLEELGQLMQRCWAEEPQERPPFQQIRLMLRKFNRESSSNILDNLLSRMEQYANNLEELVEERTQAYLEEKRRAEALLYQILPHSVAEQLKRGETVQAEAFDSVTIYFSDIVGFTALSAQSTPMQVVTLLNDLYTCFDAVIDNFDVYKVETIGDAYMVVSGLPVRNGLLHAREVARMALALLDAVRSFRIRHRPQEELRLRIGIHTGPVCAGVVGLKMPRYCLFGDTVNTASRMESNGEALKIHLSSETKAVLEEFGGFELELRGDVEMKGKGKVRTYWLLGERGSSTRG

T2: rat GC-A (rat), P18910
T2 chain: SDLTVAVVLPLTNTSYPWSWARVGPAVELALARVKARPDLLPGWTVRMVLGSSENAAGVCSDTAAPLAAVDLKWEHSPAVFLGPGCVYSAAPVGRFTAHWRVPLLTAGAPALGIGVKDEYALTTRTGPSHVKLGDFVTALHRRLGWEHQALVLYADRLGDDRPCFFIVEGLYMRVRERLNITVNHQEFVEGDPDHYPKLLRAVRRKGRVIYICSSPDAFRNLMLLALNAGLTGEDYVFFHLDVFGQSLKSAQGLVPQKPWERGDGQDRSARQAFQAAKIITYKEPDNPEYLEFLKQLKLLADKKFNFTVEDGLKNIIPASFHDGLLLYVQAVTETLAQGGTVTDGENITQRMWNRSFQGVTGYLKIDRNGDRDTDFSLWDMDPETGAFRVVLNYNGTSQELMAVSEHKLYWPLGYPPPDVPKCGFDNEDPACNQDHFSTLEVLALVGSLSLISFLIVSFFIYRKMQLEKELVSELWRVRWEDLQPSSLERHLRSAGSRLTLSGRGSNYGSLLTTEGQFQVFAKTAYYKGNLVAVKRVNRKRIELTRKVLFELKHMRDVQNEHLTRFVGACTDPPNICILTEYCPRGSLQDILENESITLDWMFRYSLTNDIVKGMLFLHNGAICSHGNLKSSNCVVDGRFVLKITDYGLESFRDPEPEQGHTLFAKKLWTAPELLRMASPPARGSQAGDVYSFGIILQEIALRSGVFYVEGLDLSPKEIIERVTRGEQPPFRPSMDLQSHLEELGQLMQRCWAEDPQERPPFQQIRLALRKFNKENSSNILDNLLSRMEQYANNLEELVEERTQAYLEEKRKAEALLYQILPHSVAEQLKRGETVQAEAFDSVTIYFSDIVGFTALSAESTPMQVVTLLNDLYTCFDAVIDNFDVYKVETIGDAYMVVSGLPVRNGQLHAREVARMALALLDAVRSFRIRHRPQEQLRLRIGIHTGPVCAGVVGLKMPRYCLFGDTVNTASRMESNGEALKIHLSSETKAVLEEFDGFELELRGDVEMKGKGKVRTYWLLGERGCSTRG

T3: NPR-A of HeLa cells, P16066
T3 chain: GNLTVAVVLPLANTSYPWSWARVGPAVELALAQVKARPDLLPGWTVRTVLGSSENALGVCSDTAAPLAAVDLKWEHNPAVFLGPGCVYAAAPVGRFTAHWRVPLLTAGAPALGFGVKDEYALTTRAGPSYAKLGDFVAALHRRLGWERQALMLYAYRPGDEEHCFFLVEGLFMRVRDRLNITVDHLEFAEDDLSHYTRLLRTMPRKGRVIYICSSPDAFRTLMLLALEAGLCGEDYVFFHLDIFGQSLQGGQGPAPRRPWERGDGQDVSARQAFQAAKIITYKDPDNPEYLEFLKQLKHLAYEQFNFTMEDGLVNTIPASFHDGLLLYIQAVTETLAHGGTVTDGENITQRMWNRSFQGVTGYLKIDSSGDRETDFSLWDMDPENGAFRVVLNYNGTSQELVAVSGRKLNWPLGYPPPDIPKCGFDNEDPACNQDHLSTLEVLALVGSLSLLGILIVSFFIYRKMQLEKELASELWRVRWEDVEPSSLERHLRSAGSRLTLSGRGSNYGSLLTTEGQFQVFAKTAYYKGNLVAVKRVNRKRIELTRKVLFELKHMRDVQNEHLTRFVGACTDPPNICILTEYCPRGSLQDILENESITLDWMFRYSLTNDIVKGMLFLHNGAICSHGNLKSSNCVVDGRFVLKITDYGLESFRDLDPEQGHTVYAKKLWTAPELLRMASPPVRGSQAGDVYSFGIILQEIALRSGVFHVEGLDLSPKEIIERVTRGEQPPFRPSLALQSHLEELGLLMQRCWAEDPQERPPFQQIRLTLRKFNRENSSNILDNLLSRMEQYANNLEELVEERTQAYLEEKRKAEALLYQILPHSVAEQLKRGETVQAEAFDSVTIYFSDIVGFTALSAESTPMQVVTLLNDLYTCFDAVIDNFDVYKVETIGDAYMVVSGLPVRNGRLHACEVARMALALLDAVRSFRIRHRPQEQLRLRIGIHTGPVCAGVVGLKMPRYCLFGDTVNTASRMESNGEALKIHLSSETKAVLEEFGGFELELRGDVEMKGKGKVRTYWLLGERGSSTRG


Tests used:
Assay in all cases: cell-based or functional assay
[1] = biological target: T1, Natriuretic Peptide Receptor-A (NPR-A) …
rat GC-A (rat), P18910 = biological target: T2, rat GC-A (rat), P18910
[2] = biological target: T3, NPR-A of HeLa cells, P16066

Binder	-Log10 EC50 (pEC50) of cGMP accumulation in MDCK cells [1]	EC50 of cGMP accumulation in MDCK cells [1]	mean relaxation of denuded aortic rings, % of KCl response (% of KCl response) (rat GC-A (rat), P18910)	-Log10EC50 (pEC50) of cGMP accumulation in HeLa cells [2]	EC50 of cGMP accumulation in HeLa cells [2]
SPKMVQGSGCFGFPLDRIGSVSGLGCNRIMQNPPKKFSGE (modifications not checked) [BTT]	8.18	7.06 nM	62.1		
SDSKIGNGCFGHKIDRINHVSNLGCNRIMQNPPKKFSGE (modifications not checked) [TDT]				7.21	70.4 nM
SDSKIGNGCFGAKIDRINHVSNLGCNRIMQNPPKKFSGE (modifications not checked) [H12A TDT]				6.65	229 nM
SDSKIGNGCFGRKIDRINHVSNLGCNRIMQNPPKKFSGE (modifications not checked) [H12R TDT]				8.05	8.89 nM
SDSKIGNGCFGHKIDRINHASNLGCNRIMQNPPKKFSGE (modifications not checked) [V20A TDT]				6.42	455 nM
SDSKIGNGCFGHKIDRINHVSGLGCNRIMQNPPKKFSGE (modifications not checked) [N22G TDT]				8.5	3.14 nM
EVKYDPCFGFPLDRIGSVSGLGCNRIMQNPPKKFSGE (modifications not checked) [DTT]	7.72	21.2 nM	58.9		
